A mixed list of measured activities; the numbers were collected in NIAID ChemDB.

Common to all: tests in culture; organism: Aspergillus niger; read-out: inhibition

Blank or dashed fields: not listed here. Percent inhibition refers to the dose given; in toxicity tests it is the harm to the cells. Conditions beyond the fields shown may differ between rows.

| structure | read by | dose | strain | result |
|---|---|---|---|---|
| O=C(CSc1nc2ccccc2[nH]1)c1c([O-])on[n+]1-c1ccc(Cl)cc1 | agar diffusion | 20 µg/mL |  | 0% |
| CSc1ccc(C2CC(c3ccc(F)cc3)=NN2c2ccccc2)cc1 | broth dilution | 2000 µg/mL | NCIM 596 | 97.28% |
| C[C@H]1Cc2oc3cc(O)c(O)cc3c(=O)c2[C@H](O)O1 | absorbance | 200 µg/mL |  | 0% |
| COc1cc(Cl)ccc1-[n+]1noc([O-])c1C(=O)CSc1nc2ccccc2[nH]1 | agar diffusion | 20 µg/mL |  | 0% |
| C/C(=N\NC(=S)Nc1cccc([N+](=O)[O-])c1)c1c(O)ccc2c(C)cc(=O)oc12 | agar diffusion / agar | 100 µg/mL |  | 80.17% |
| O=C1C(O)C(CO)OC(Oc2c[nH]c3ccccc23)C1O |  | 400 µg/mL | ATCC 1015 | 40% |
| COc1ccc(C2=NN(c3ccccc3)C(c3ccc(SC)cc3)C2)cc1 | broth dilution | 2000 µg/mL | NCIM 596 | 81.09% |
| Cc1ccc(-[n+]2noc([O-])c2C(=O)CSc2nc3ccccc3[nH]2)cc1C | agar diffusion | 20 µg/mL |  | 0% |
| CC(=O)N1N=C(c2sc3ccc(Cl)cc3c2Cl)OC1c1ccccc1 | agar diffusion / agar | 40 µg/mL | ATCC 9029 | 27% |
| O=C(CSc1nc2ccccc2[nH]1)c1c([O-])on[n+]1-c1cccc(Cl)c1 | agar diffusion | 20 µg/mL |  | 0% |
| Cc1cc(C=Nc2ccc(N=Cc3cc(C)cc(/C=N/Nc4nc5ccccc5s4)c3O)cc2)c(O)c(/C=C/Nc2nc3ccccc3s2)c1 | turbidity | 25 µg/mL |  | 37.74% |
| O=C(CSc1nc2ccccc2[nH]1)c1c([O-])on[n+]1-c1ccccc1 | agar diffusion | 20 µg/mL |  | 0% |
| Clc1ccc2c(c1)nnc1nnnn12 |  | 22 µg/mL | CCM F-384 | 90% |
| CSc1ccc(C2CC(c3ccc(C)cc3)=NN2c2ccccc2)cc1 | broth dilution | 2000 µg/mL | NCIM 596 | 92.98% |
| Cc1ccc(-[n+]2noc([O-])c2C(=O)CSc2nc3ccccc3[nH]2)cc1 | agar diffusion | 20 µg/mL |  | 0% |
| CSc1ccc(C2CC(c3ccccc3Cl)=NN2c2ccccc2)cc1 | broth dilution | 2000 µg/mL | NCIM 596 | 98.33% |
| C=CC(C/C(=N/OS(=O)(=O)O)SC1OC(CO)C(O)C(O)C1O)OC(=O)CC1C(=O)Nc2ccccc21 |  | 400 µg/mL | ATCC 1015 | 68.8% |
| CSc1ccc(C2CC(c3ccc(Cl)cc3)=NN2c2ccccc2)cc1 | broth dilution | 2000 µg/mL | NCIM 596 | 92.99% |
| C=CC(C/C(=N/OS(=O)(=O)O)SC1OC(CO)C(O)C(O)C1O)OC(=O)CC1(O)C(=O)Nc2ccccc21 |  | 400 µg/mL | ATCC 1015 | 75% |

Repeating the first 2 entries:

O=C(CSc1nc2ccccc2[nH]1)c1c([O-])on[n+]1-c1ccc(Cl)cc1 ; read by: agar diffusion ; dose: 20 µg/mL ; result: 0%
CSc1ccc(C2CC(c3ccc(F)cc3)=NN2c2ccccc2)cc1 ; read by: broth dilution ; dose: 2000 µg/mL ; strain: NCIM 596 ; result: 97.28%